Measured values from several laboratories, pooled; numbers as filed in NIAID ChemDB.

All rows: whole-cell or culture tests; organism: Herpes simplex virus 1; cells: E6SM; read by: cytopathic effect; read-out: EC50

Conditions beyond the fields shown may differ between rows. ECn: concentration that inhibits the pathogen or its effect by n%.

SMILES | strain | result
OC[C@H]1O[C@@H](n2cnc3cc(Cl)c(Cl)cc32)[C@@H](O)[C@@H]1O | KOS | >10 µg/mL
O=C(O)c1cc(O)ccc1O | KOS | 20 µg/mL
O=c1ccn([C@H]2C[C@H](O)[C@@H](CO)O2)c(=O)[nH]1 | KOS McIntyre F | >2000 µM
Nc1nc(Cl)c2ncn(C[C@H]3CC[C@@H](CO)C3)c2n1 | VMW1837 (TK-) | >1 µg/mL
Nc1nc(NC2CC2)c2ncn([C@H]3C=C[C@@H](CO)C3)c2n1 | TK-deficient acyclovir-resistant | >40 µg/mL
O=c1[nH]c(=O)n([C@H]2C[C@H](O)[C@@H](CO)O2)cc1C1CCCCC1 | KOS McIntyre F | >1200 µM
O[C@@H]1[C@@H](OCc2ccccc2)[C@@H](COCc2ccccc2)O[C@H]1n1cnc2cc(Cl)c(Cl)cc21 | KOS | >10 µg/mL
CCCc1cn([C@H]2C[C@H](O)[C@@H](CO)S2)c(=O)[nH]c1=O | KOS McIntyre F | 0.06 µM
Nc1nc2c(ncn2COCCOP2(=O)OCc3ccccc3O2)c(=O)[nH]1 | KOS | 1.3 µg/mL
CCc1cn([C@H]2C[C@H](O)[C@@H](CO)S2)c(=O)[nH]c1=O | KOS McIntyre F | 0.04 µM
OCCOC([C@H](O)CO)n1cnc2cc(Cl)c(Cl)cc21 | KOS | >400 µg/mL
Oc1cccc(O)c1O | KOS | 15 µg/mL
Cc1cccc2c1OP(=O)(OCCOCn1cnc3c(=O)[nH]c(N)nc31)OC2 | KOS | 0.8 µg/mL
Nc1nc(N)c2nnn(C[C@H]3CC[C@@H](CO)C3)c2n1 | B2006 (TK-) | >400 µg/mL
O[C@H]1[C@@H](O)COC(n2cnc3cc(Cl)c(Cl)cc32)[C@@H]1O | KOS | >400 µg/mL
Cc1c(CC(=O)O)ccc(O)c1O | KOS | 40 µg/mL
CC#CSC[C@H]1O[C@@H](n2cnc3c(N)ncnc32)[C@H](O)[C@@H]1O | KOS | 250 µM
O=c1[nH]c(=O)n([C@H]2C[C@H](O)[C@@H](CO)O2)cc1/C=C/Br | KOS | 0.04 µg/mL
Nc1nccc2c1ncn2[C@@H]1C[C@H](CO)[C@@H](O)[C@H]1O | KOS | 200 µg/mL
O=C(O)Cc1cc(O)ccc1O | B2006 (TK-) | 4 µg/mL
Nc1nc(Cl)c2nnn(C[C@H]3CC[C@@H](CO)C3)c2n1 | VMW1837 (TK-) | >200 µg/mL
Nc1nc(NC2CC2)c2ncn([C@H]3C=C[C@@H](COP4(=O)OCc5ccccc5O4)C3)c2n1 | KOS | 8 µg/mL
CCc1cn([C@H]2C[C@H](O)[C@@H](CO)O2)c(=O)[nH]c1=O | KOS McIntyre F | 12 µM
COc1ccc2c(c1)COP(=O)(OC[C@@H]1C=C[C@H](n3cnc4c(NC5CC5)nc(N)nc43)C1)O2 | TK-deficient acyclovir-resistant | 22 µg/mL
OCCOC(CO)n1cnc2cc(Cl)c(Cl)cc21 | KOS | >200 µg/mL

Again, the opening 2 rows:

{"SMILES": "OC[C@H]1O[C@@H](n2cnc3cc(Cl)c(Cl)cc32)[C@@H](O)[C@@H]1O", "strain": "KOS", "result": ">10 µg/mL"}
{"SMILES": "O=C(O)c1cc(O)ccc1O", "strain": "KOS", "result": "20 µg/mL"}